Molecular target: MERS-CoV S2 subunit of the thrombin-treated S ectodomain (cleaved after R748) (MERS-CoV) (UniProt K9N5Q8)
Assay: cryo-EM structure

MERS-CoV S2 subunit of the thrombin-treated S ectodomain (cleaved after R748) (from UniProt K9N5Q8 749-1294) (domain or fragment)
stoichiometry N: 3

— article PMC5394239, “Cryo-EM structures of MERS-CoV and SARS-CoV spike glycoproteins reveal the dynamic receptor binding domains” (2017)
